A mixed list of measured activities; the numbers were collected in NIAID ChemDB.

Shared fields: growth or infection tests; organism: Cryptosporidium parvum; endpoint: inhibition

Blank or dashed fields: not listed here.

compound | tested at | cells | value
CCSc1c2ccccc2nc2cc([N+](=O)[O-])ccc12 | 10 µg/mL | - | 19%
COc1cc(O)c2c(O)c(C(=O)c3ccccc3)oc2c1 | 10 µM | - | 36%
CC[C@H]1OC(=O)[C@H](C)[C@@H](O[C@H]2C[C@@](C)(OC)[C@@H](O)[C@H](C)O2)[C@H](C)[C@@H](O[C@@H]2O[C@H](C)C[C@H](N(C)C)[C@H]2O)[C@](C)(O)C[C@@H](C)CN(C)[C@H](C)[C@@H](O)[C@]1(C)O | 0.5 µg/mL | A549 | 7%
Cc1[nH]nc2c1C(=O)c1c(O)ccc(O)c1C2=O | 50 µM | - | 79%
O=C1/C(=C/c2ccc(O)cc2O)Oc2cc(O)ccc21 | 10 µM | - | 0%
CO[C@H]1/C=C/O[C@@]2(C)Oc3c(C)c(O)c4c(O)c(c5c(c4c3C2=O)NC2(CCN(CC(C)C)CC2)N=5)=NC(=O)/C(C)=C\C=C\[C@H](C)[C@H](O)[C@@H](C)[C@@H](O)[C@@H](C)[C@H](OC(C)=O)[C@@H]1C | 0.5 µg/mL | A549 | 6.1%
O=C1/C(=C/c2ccc(O)c(O)c2)Oc2cc(O)ccc21 | 50 µM | - | 96%
CCSc1c2ccccc2nc2ccccc12 | 10 µg/mL | - | 28%
O=C1c2ccccc2C(=O)c2[nH]ncc21 | 10 µM | - | <10%
Nc1ccc2c(Sc3ccc([N+](=O)[O-])cc3)c3ccccc3nc2c1 | 10 µg/mL | - | 26%
CCn1ncc2c1C(=O)c1c(O)ccc(O)c1C2=O | 25 µM | - | <10%
O=C(c1ccccc1)c1oc2cc(O)cc(Cc3ccccc3)c2c1O | 10 µM | - | 2%
Cn1ncc2c1C(=O)c1cccc(O)c1C2=O | 25 µM | - | 100%
O=[N+]([O-])c1ccc(CSc2c3ccccc3nc3cc(Cl)ccc23)cc1 | 50 µg/mL | - | 32%
Cn1cc2c(n1)C(=O)c1cc3ccccc3c(O)c1C2=O | 50 µM | - | <10%
COc1cc(/C=C2\Oc3cc(O)cc(O)c3C2=O)ccc1O | 25 µM | - | 45%
CCn1nc(Cc2ccccc2)c2c1C(=O)c1c(OC(C)=O)c(C)c(C)c(OC(C)=O)c1C2=O | 25 µM | - | <10%
COc1cc(/C=C/C=C\c2ccccc2)oc(=O)c1C | 25 µM | - | 5%

Repeating the first 2 entries:

compound,tested at,cells,value
CCSc1c2ccccc2nc2cc([N+](=O)[O-])ccc12,10 µg/mL,-,19%
COc1cc(O)c2c(O)c(C(=O)c3ccccc3)oc2c1,10 µM,-,36%

Rows are shuffled and stem from different studies. Inhibition is in % at the dose shown (toxicity tests: loss of growth or viability).